{"source": "patent US5051403A", "about": "(priority 1989, dated 1991)", "test_system": "ischemic gerbils, spontaneous motor activity", "test": "Ischemia-induced hyperactivity in gerbils (Automex activity monitors)", "data": [{"compound": "CSCC[C@@H]1NC(=O)[C@H](CC(C)C)NC(=O)[C@H](CCCNC(=N)N)NC(=O)[C@H](CO)NC(=O)[C@@H]2CSSC[C@@H]3NC(=O)[C@H](CO)NC(=O)CNC(=O)[C@H]([C@@H](C)O)NC(=O)[C@H](CSSC[C@H](N)C(=O)N[C@@H](CCCCN)C(=O)NCC(=O)N[C@@H](CCCCN)C(=O)NCC(=O)N[C@@H](C)C(=O)N[C@@H](CCCCN)C(=O)N2)NC(=O)[C@H](CSSC[C@@H](C(N)=O)NC(=O)[C@H](CCCCN)NC(=O)CNC(=O)[C@H](CO)NC(=O)[C@H](CCCNC(=N)N)NC3=O)NC(=O)[C@H](CC(=O)O)NC(=O)[C@H](Cc2ccc(O)cc2)NC1=O", "note": "[MVIIA]", "values": [{"measurement": "spontaneous motor activity (in words)", "setting": "occluded, treated animals, 1 day after occlusion", "result": "lower-than baseline values"}, {"measurement": "spontaneous motor activity (in words)", "setting": "occluded, treated animals, three days after occlusion", "result": "near-normal levels of activity"}, {"measurement": "spontaneous motor activity (in words)", "setting": "peptide in the absence of ischemia", "result": "reduces activity"}]}]}
